Anti-infective test results gathered from many reports (values: NIAID ChemDB through PubChem).

Shared fields: growth or infection tests; organism: HIV-1; read by: cytopathic effect / MTT; endpoint: EC50

ECn is the concentration giving n% inhibition of infection, replication or growth. Rows are shuffled and stem from different studies. An empty or dashed field is not shown.

SMILES | strain | cell line | mutations | setting | result
Cc1c(O)cccc1C(=O)N[C@@H](CSc1ccccc1)[C@H](O)CN1C[C@H]2CCCC[C@H]2C[C@H]1C(=O)NC(C)(C)C | NL4-3 B | MT-4 |  |  | 0.0483 µM
N/C(=N/O)c1cccc(CN2C(=O)N[C@H](CCc3ccccc3)[C@@H](O)[C@H]2Cc2ccccc2)c1 | RF | MT-2 |  |  | <0.37 µM
COc1cc(/C=C/C(=O)/C=C/c2ccc(O)c(OC)c2)ccc1O |  | MT-4 |  |  | >1.4 µM
C1CNCCNCC(CCOCCOCCC2CNCCNCCCNCCNC2)CNCCNC1 | IIIB | MT-4 |  | 6 d | 9.25 µM
CCOCn1c(Cc2ccccc2)c(C(C)C)c(=O)[nH]c1=O | IIIB | MT-4 | RT-Y181C |  | 44 µM
C1CNCCNCCNCCN1 | IIIB | MT-4 |  | 4 d | >19.5 µM
O=C1N(Cc2cccc(O)c2)[C@H](Cc2ccccc2)[C@H](O)[C@@H](C(F)Cc2ccccc2)N1Cc1cccc(O)c1 | RF | MT-2 |  |  | <2.1 µM
NC(N)=NCCC[C@H](N)C(=O)NC[C@@H]1OC(O[C@H]2[C@@H](O)[C@H](O[C@@H]3[C@@H](O)[C@H](NC(=O)[C@@H](N)CCCN=C(N)N)C[C@H](NC(=O)[C@@H](N)CCCN=C(N)N)[C@H]3O[C@H]3O[C@H](CNC(=O)[C@@H](N)CCCN=C(N)N)[C@@H](O)[C@H](O)[C@H]3NC(=O)[C@@H](N)CCCN=C(N)N)O[C@@H]2CO)[C@H](NC(=O)[C@@H](N)CCCN=C(N)N)[C@@H](O)[C@@H]1O | AZT-resistant Clinical isolate | MT-4 |  |  | 0.8 µM
CCCCC1C(=O)C=C2N(C1=O)c1ccccc1C2(C)C | RF | MT-4 |  |  | >100 µM
CCC(C)Nc1nc(N)nc2c1[nH]c[n+]2C[C@@H](C)OCP(=O)(O)O | IIIB | MT-4 |  |  | 30 ± 19 µg/mL
Cc1cn([C@H]2C[C@H](N=[N+]=[N-])[C@@H](COP(=O)(O)OCCCCCCCCN3CCN(C)CC3)O2)c(=O)[nH]c1=O | LAI | CEM + CEM-4 |  |  | 0.23 µM
Cc1cn([C@H]2C[C@H](N=[N+]=[N-])[C@@H](COC(=O)CCC(=O)OC[C@H]3O[C@@H]4O[C@H]5[C@H](O)[C@@H](O)[C@@H](O[C@H]6[C@H](O)[C@@H](O)[C@@H](O[C@H]7[C@H](O)[C@@H](O)[C@@H](O[C@H]8[C@H](O)[C@@H](O)[C@@H](O[C@H]9[C@H](O)[C@@H](O)[C@@H](O[C@H]%10[C@H](O)[C@@H](O)[C@@H](O[C@H]3[C@H](O)[C@H]4O)O[C@@H]%10CO)O[C@@H]9CO)O[C@@H]8CO)O[C@@H]7CO)O[C@@H]6CO)O[C@@H]5CO)O2)c(=O)[nH]c1=O | IIIB | MT-4 |  |  | 0.0186 µg/mL
Nc1nc(N)c2ncn(CCOCP(=O)(O)O)c2n1 | IIIB | MT-4 |  |  | 2.67 µg/mL
CC(C)=CCN1Cc2cc(Cl)cc3[nH]c(=S)n(c23)C[C@@H]1C | McK | CEM + CEM-SS |  |  | 0.064 µM
Cc1ccnc2c1NC(=O)c1cccnc1N2C1CC1 | LAI | MT-2 |  |  | 0.2 µM
N/C(=N/O)c1cccc(CN2C(=O)N(CC3CC3)[C@H](CCc3ccccc3)[C@@H](O)[C@H]2Cc2ccccc2)c1 | RF | MT-2 |  |  | <0.036 µM
O=C(/C=C/c1ccc(O)c(O)c1)c1ccc(O)cc1O |  | MT-4 |  |  | >3.3 µM
CN(C)CCN(C)CCCCCCCCOP(=O)(O)OC[C@H]1OC(O)[C@H](O)[C@@H](O)[C@@H]1O | LAI | CEM + CEM-4 |  |  | 1 µM
c1cnc2c(c1)cc(CN1CCNCCNCCNCC1)c1cccnc12 | IIIB | MT-4 |  | 6 d | >17.6 µM
Cc1cn([C@H]2C[C@H](N=[N+]=[N-])[C@@H](COC(=O)CCC(=O)OC[C@H]3O[C@@H]4O[C@H]5[C@H](O)[C@@H](O)[C@@H](O[C@H]6[C@H](O)[C@@H](O)[C@@H](O[C@H]7[C@H](O)[C@@H](O)[C@@H](O[C@H]8[C@H](O)[C@@H](O)[C@@H](O[C@H]9[C@H](O)[C@@H](O)[C@@H](O[C@H]3[C@H](O)[C@H]4O)O[C@@H]9CO)O[C@@H]8CO)O[C@@H]7CO)O[C@@H]6CO)O[C@@H]5CO)O2)c(=O)[nH]c1=O | IIIB | MT-4 |  |  | 0.005 µg/mL
C=CCOCn1c(Cc2cc(C)cc(C)c2)c(CC)c(=O)[nH]c1=O | HXB2 | MT-4 |  |  | 0.003 µM
C[C@H](C[n+]1c[nH]c2c(N(C)C)nc(N)nc21)OCP(=O)(O)O | IIIB | CEM |  |  | 10 µg/mL
O=S(=O)(O)OCC1OC2OC3C(COS(=O)(=O)O)OC(OC4C(COS(=O)(=O)O)OC(OC5C(COS(=O)(=O)O)OC(OC6C(COS(=O)(=O)O)OC(OC7C(COS(=O)(=O)O)OC(OC8C(COS(=O)(=O)O)OC(OC9C(COS(=O)(=O)O)OC(OC1C(OS(=O)(=O)O)C2OS(=O)(=O)O)C(OS(=O)(=O)O)C9OS(=O)(=O)O)C(OS(=O)(=O)O)C8OS(=O)(=O)O)C(OS(=O)(=O)O)C7OS(=O)(=O)O)C(OS(=O)(=O)O)C6OS(=O)(=O)O)C(OS(=O)(=O)O)C5OS(=O)(=O)O)C(OS(=O)(=O)O)C4OS(=O)(=O)O)C(OS(=O)(=O)O)C3OS(=O)(=O)O | NL4-3 | MT-4 |  |  | 0.14 µg/mL
O=C(O)P(=O)(O)O | LAI viral clone (RT-H208Y) | MT-2 | RT-H208Y |  | 68 µM
O=C(/C=C/c1ccc(O)cc1)/C=C/c1ccc(O)cc1 |  | MT-4 |  |  | >1.6 µM
Nc1cccc(CN2C(=O)N(Cc3cccc(N)c3)[C@H](Cc3ccccc3)[C@H](O)[C@H]2CCc2ccccc2)c1 | RF | MT-2 |  |  | <0.365 µM
Cc1cn([C@H]2C[C@H](N=[N+]=[N-])[C@@H](CO)O2)c(=O)[nH]c1=O | RF | MT-4 |  |  | 0.002 µM
CC[C@@]1(O)C(=O)OCc2c1cc1n(c2=O)Cc2cc3ccccc3nc2-1 |  | MT-4 |  |  | >0.01 µM
CCCCNc1nc(N)nc2c1[nH]c[n+]2C[C@@H](C)OCP(=O)(O)O | IIIB | MT-4 |  |  | 13.1 ± 4.3 µg/mL
CC1(C)C2=CC(=O)C(O)(c3ccccc3)C(=O)N2c2ccc(Cl)cc21 | RF |  |  |  | 0.35 µM
CN(C)CCCNc1nc(N)nc2c1ncn2CCOCP(=O)(O)O | IIIB | CEM |  |  | 13 µg/mL
Nc1n[nH]c2ccc(CN3C(=O)N(Cc4ccccc4)[C@H](Cc4ccccc4)[C@H](O)[C@H]3CCc3ccccc3)cc12 | RF | MT-2 |  |  | <0.071 µM
COc1cc(/C=C/C(=O)CC(=O)/C=C/c2ccc(O)c(OC)c2)ccc1O |  | MT-4 |  |  | >7.4 µM
CC(=O)O[C@@]12C[C@@H](C)[C@@]3(O)[C@@H](C=C(CO)C[C@]4(O)C(=O)C(C)=C[C@@H]34)[C@@H]1C2(C)C | NRTI resistant | MT-4 | RT K70R T215Y 69SS A62V E79K V118I M184V E203K L210W |  | 0.06 µg/mL
O=C1N(Cc2cccc(-c3ccn[nH]3)c2)[C@H](CCc2ccccc2)[C@@H](O)[C@@H](Cc2ccccc2)N1Cc1cccc(-c2ccn[nH]2)c1 | RF | MT-2 |  |  | <0.022 µM
CCCCC1(O)C(=O)C=C2N(C1=O)c1ccccc1C2(C)C | RF | MT-4 |  |  | >100 µM
CC(C)(C)NC(=O)[C@@H]1C[C@@H]2CCCC[C@@H]2CN1C[C@@H](O)[C@H](Cc1ccccc1)NC(=O)[C@H](CC(N)=O)NC(=O)c1ccc2ccccc2n1 | NL4-3 PR-S12T I15V I19L M36I R41K H69K L89M I93L CLONE 6( C ) | MT-4 |  |  | 0.0026 µM
N#Cc1cccc(CN2C(=O)N(Cc3cccc(N)c3)[C@H](Cc3ccccc3)[C@H](O)[C@H]2CCc2ccccc2)c1 | RF | MT-2 |  |  | <0.565 µM
O=S(=O)(O)OCC1OC2OC3C(COS(=O)(=O)O)OC(OC4C(COS(=O)(=O)O)OC(OC5C(COS(=O)(=O)O)OC(OC6C(COS(=O)(=O)O)OC(OC7C(COS(=O)(=O)O)OC(OC8C(COS(=O)(=O)O)OC(OC1C(OS(=O)(=O)O)C2OS(=O)(=O)O)C(OS(=O)(=O)O)C8OS(=O)(=O)O)C(OS(=O)(=O)O)C7OS(=O)(=O)O)C(OS(=O)(=O)O)C6OS(=O)(=O)O)C(OS(=O)(=O)O)C5OS(=O)(=O)O)C(OS(=O)(=O)O)C4OS(=O)(=O)O)C(OS(=O)(=O)O)C3OS(=O)(=O)O | NL4-3 | MT-4 |  |  | 0.13 µg/mL

For reference, 2 entries again:

SMILES | strain | cell line | mutations | setting | result
COc1cc(/C=C/C(=O)CC(=O)/C=C/c2ccc(O)c(OC)c2)ccc1O |  | MT-4 |  |  | >7.4 µM
CCCCNc1nc(N)nc2c1[nH]c[n+]2C[C@@H](C)OCP(=O)(O)O | IIIB | MT-4 |  |  | 13.1 ± 4.3 µg/mL